We go through one molecule from patent publication US20230192819A1 (TWIST BIOSCIENCE, published 2023).

Assay [1] concerns the target T1, Acro S1 spike protein (SARS-CoV-2) (SARS-CoV-2, UniProt P0DTC2 16-685). Nature of the assay: Carterra SPR; panel B), table S1, row exp. date Jun-21.
Assay [2] concerns the target T1, Acro S1 spike protein (SARS-CoV-2). Nature of the assay: Carterra SPR; panel B), annotation in the right (grey) sensorgram.
Assay [3] shares this target. Description: Carterra SPR; panel B), table S1, row exp. date Sep-21.

Bounds are passed on as bounds.

By Kd is commonly meant the constant that tells how readily two partners part at equilibrium. A low value points to tighter binding. As a reminder, the koff is a measure of how fast the partners let go of each other. A high value points to fast dissociation.

B1: Antibody 1-7 (Fc fusion)
chain: EVQLVESGGGLVQPGGSLRLSCAASGGTFSSIGMGWFRQAPGKEREFVAAISWDGGATAYADSVKGRFTISADNSKNTVYLQMNSLKPEDTAVYYCAKEDVGKPFDWGQGTLVTVSS
As for B1, the figures for the equilibrium dissociation constant (Kd) in assay [1], in assay [2] and in assay [3] were 238 pM, < 62 pM and 62.1 pM, respectively. For the same molecule, in assay [1], the off-rate (koff) was 3.1e-05 s⁻¹.
